In publication PMC10622425, “The role of an amphiphilic helix and transmembrane region in the efficient acylation of the M2 protein from influenza virus” (2023):

What was measured:
[1] = molecular target: M2-AH-4 mutant (three lysines instead of Phe48, Ile51, Phe55) (Influenza A virus A/WSN/33 (H1N1)); assay: co-IP
[2] = molecular target: M2-AH-5 mutant (Lys49, Arg53, Lys60, Arg61 replaced by Phe) (Influenza A virus A/WSN/33 (H1N1)); assay: co-IP

human DHHC20 fused at its C-terminus to a myc-tag (from UniProt Q5W0Z9 5-299) (enzyme)
co-precipitated DHHC20-myc per M2, fold of M2-wt [1]: 2 fold | co-precipitated DHHC20-myc per M2, percent of M2-wt [2]: 20%
